Measurements reported in PubChem BioAssay AID624099 (ICCB-Longwood, 2012).

- Screen: 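Human genes that papillomavirus E2 requires to repress the HPV18 LCR promoter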 (primary screen)
- System: human C33A cervical carcinoma cells (HPV-negative) stably expressing BPV1 E2 and an HPV18 LCR luciferase reporter
- Reagent: siRNA pool against human genes, 40 nM
- Duration: 72 h
- Read-out: 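Per-well luciferase luminescence, z-scored on each plate against the plate mean and SD with control wells left out, then averaged across three replicate plates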
- Direction: mean z-score and z-score: higher = stronger reporter signal, weaker E2 silencing
- Active means: 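Hit if mean z-score reaches 2 and two or more of three replicate z-scores also reach 2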
This is a random part of about 21,000 deposited reagents. Over the whole deposit, 497 (2.4%) are marked active. 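Higher z means weaker E2 silencing; only reporter increases were scored, and knock-downs that hurt cell survival may mask genuine repressor factors.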 Unmarked entries are inactive. Reagent sequences are not shown.

target gene	mean z-score	z-score, replicate A	z-score, replicate B	z-score, replicate C
TMEM184C	-1	-1	-0.96	-1.05
STARD8	0.25	0.36	0.06	0.32
GCK	-0.6	-0.99	-0.25	-0.56
IQSEC2	0.01	-0.29	0.14	0.19
PLCB3	0.28	0.96	-0.08	-0.03
CLEC4E	0.4	0.22	0.59	0.39
TRPV2	0.45	0.54	0.56	0.26
TRIM16L	-0.65	-0.95	-0.25	-0.75
RPS27	-2.15	-2.24	-2.03	-2.2
DHRS1	-0.36	-0.3	-0.2	-0.58
AP2M1	-0.25	-0.71	0.03	-0.06
CD55	0.94	1	0.85	0.97
HACL2	-0.1	-0.08	-0.09	-0.13
NEFL	0.06	0.02	0.1	0.07
LOC401295 (retired record)	0.14	0.17	0.27	-0.01
LOC391764 (retired record)	0.22	0.22	0.35	0.08
PRMT5	-0.91	-0.89	-0.8	-1.02
POLR2C	-4.71	-5.05	-4.62	-4.47
PKD1P1	0.66	0.45	0.73	0.81
BAG1	0.62	0.8	0.51	0.54
KRT27	0.08	0.28	-0.33	0.29
CLSTN3	0.23	-0.18	0.71	0.16
ZNF282	-0.08	0.23	-0.14	-0.32
NUMB	-1.34	-1.21	-1.31	-1.49
DLL1	1.73	1.59	1.71	1.89
GFOD2	-0.49	-0.47	-0.66	-0.36
MPG	1.1	0.97	1.3	1.03
ABCG1	-0.59	-0.79	-0.49	-0.5
CYCS	-1.42	-1.57	-1.22	-1.47
FAM237A	-0.69	-0.56	-0.89	-0.61
LOC389028 (retired record)	-1.22	-1.44	-1.15	-1.07
JAKMIP3	1.1	0.51	1.34	1.45
ABCB1	-0.25	-0.39	0.03	-0.4
GDAP1	0.92	0.79	1.09	0.88
ZNF32	0.79	1.15	0.72	0.49
OMA1	-0.17	-0.11	-0.21	-0.18
OPALIN	-1.02	-1.07	-1.03	-0.97
WFDC8	-0.22	0.22	-0.31	-0.57
DYNLL2	0.58	0.68	0.34	0.73
PPP4R2	0.36	0.29	0.54	0.25
CETN3	-1.09	-1.47	-0.92	-0.88
SPAG5	-1.84	-1.85	-1.91	-1.75
EFCAB6	-0.53	-0.31	-0.66	-0.62
TSHB	0.64	0.56	0.75	0.62
FGD5	0.11	-0.3	0.18	0.47
LOC388528 (retired record)	0.72	0.57	0.74	0.85

Taken from above:
Result of DHRS1 under “z-score, replicate A”: -0.3
Entry for TRPV2 in “z-score, replicate A”: 0.54
GFOD2, z-score, replicate A = -0.47
Under “z-score, replicate A”, CD55 reads 1

The results go on:
target gene	mean z-score	z-score, replicate A	z-score, replicate B	z-score, replicate C
LINC00608	-0.73	-0.83	-0.71	-0.66
ZNF586	-1.21	-1.45	-0.92	-1.24
ALG12	0.3	0.19	0.14	0.56
LOC400627	2.29 (active)	2.66	1.68	2.53
GP5	-0.59	-0.32	-0.74	-0.7
CCDC121	0.57	0.95	0.59	0.17
PTPN6	1.54	1.01	1.95	1.67
DPP10-AS1	1.6	1.48	1.63	1.68
PTPN9	-0.51	-0.49	-0.52	-0.51
KRT24	-0.67	-0.82	-0.81	-0.38
CYP2C9	0.36	0.29	0.25	0.55
SH3BP4	-0.48	-0.44	-0.27	-0.72
NKX2-8	0	0.19	-0.19	-0.02
SCML1	-0.31	-0.46	-0.45	-0.01
ATP5MC2	-0.77	-0.49	-0.68	-1.16
DNAJC11	-1.68	-2.09	-1.49	-1.46
SIAH1	-0.7	-0.79	-0.77	-0.54
SCHIP1	0.18	0.11	0.42	0.01
TLL1	3.17 (active)	3.19	3.09	3.24
PIERCE1	-0.28	-0.63	-0.37	0.16
ZNF18	-0.58	-0.62	-0.52	-0.59
LMAN1L	1.63	1.71	1.62	1.56
DDAH2	0.47	0.15	0.63	0.62
SNX22	-0.03	0.23	-0.22	-0.09
ERAP1	-0.26	-0.2	-0.12	-0.46
CAVIN2	-0.28	0.21	-0.37	-0.68
EYA4	1.07	1.01	1.06	1.13
